Source: patent publication US20040072907A1, “Antipicornaviral compounds, compositions containing them, and methods for their use” (priority 1997, published 2004)

What was measured:
Assay type in all cases: cell-based, human rhinovirus
Conditions in all cases: CC50 divided by EC50
[1] = tested on: HRV serotype-14; test: Antirhinoviral HI-HeLa cell culture assay (XTT cell protection), HRV-14
Experimental: (§1) In the Cell Protection Assay, the ability of compounds to protect cells against HRV infection was measured by the XTT dye reduction method. This method is described in Weislow, O. S., Kiser, R., Fine, D. L., Bader, J., Shoemaker, R. H., Boyd, M. R., J. Natl. Cancer Inst. 1989, 81, 577-586, the disclosure of which is incorporated herein by reference.
(§2) Infected or mock-infected cells were resuspended at 8×10^5 cells per mL and incubated with appropriate concentrations of compounds of formula I. Two days later, XTT/PMS was added to test plates, and the amount of formazan produced was quantified spectrophotometrically at 450/650 nm. […] The therapeutic index (TI) was calculated by dividing the CC50 by the EC50.
(§3) All strains of human rhinovirus (HRV) for use in this assay were purchased from American Type Culture Collection (ATCC) except for HRV serotype-14, which was produced from the infectious cDNA clone constructed and supplied to Applicants by Dr. Robert Rueckert at the Institute for Molecular Virology, University of Wisconsin, Madison, Wis. HRV stocks were propagated, and viral assays were performed in HI-HeLa cells (ATCC). Cells were grown in Minimal Essential Medium, available from Life Technologies, with 10% fetal bovine serum.
(§4) The compounds were tested against control compounds WIN 51711, WIN 52084, and WIN 54954, all obtained from Sterling-Winthrop Pharmaceuticals, and control compound Pirodavir, obtained from Janssen Pharmaceuticals. Antiviral data obtained for the test compounds are shown in Table 2 where all data are for HRV serotype-14 unless otherwise noted in parentheses.

[2] = tested on: HRV serotype 2; test: Antirhinoviral HI-HeLa cell culture assay (XTT cell protection), HRV-2
Experimental: as §1, §2, §3, §4

[3] = tested on: HRV serotype 10; test: Antirhinoviral HI-HeLa cell culture assay (XTT cell protection), HRV-10
Experimental: as §1, §2
as §3, with “serum. […]” for “serum.”

[4] = tested on: HRV serotype 1A; test: Antirhinoviral HI-HeLa cell culture assay (XTT cell protection), HRV-1A
Experimental: as §1, §2
as §3, with “serum. […]” for “serum.”

Row | Structure (SMILES) | TI (therapeutic index) [1] | TI (therapeutic index) [2] | TI (therapeutic index) [3] | TI (therapeutic index) [4]
1 | CCOC(=O)/C=C/[C@H](CCC(N)=O)NC(=O)[C@@H](CC(=O)[C@H](CC(C)C)NC(=O)SCC)Cc1ccccc1 [Compound 2, Ethyl-3-(EtSCO-L-LeuΨ[COCH2]-L-Phe-L-Gln)-E-Propenoate] | >1333 | >178 |  | 
2 | CC(C)CC(NC(=O)SCc1ccccc1)C(=O)CC(Cc1ccccc1)C(=O)NC(C=CC(=O)N1CCc2ccccc21)CCC(N)=O [Compound 3, (2,3-Dihydroindole)-3-(BnSCO-L-LeuΨ[COCH2]-L-Phe-L-Gln)-E-Propenamide] | 26 |  |  | 
3 | CCOC(=O)/C=C/[C@H](CCC(N)=O)NC(=O)[C@@H](CC(=O)[C@@H](NC(=O)SCC)C(C)C)Cc1ccccc1 [Compound 4, Ethyl-3-(EtSCO-L-ValΨ[COCH2]-L-Phe-L-Gln)-E-Propenoate] | >3200 | >640 |  | 
4 | CCOC(=O)/C=C/C(CCC(N)=O)NC(=O)C(CC(=O)C(NC(=O)SCc1ccccc1)C(C)C)Cc1ccccc1 [Compound 5, Ethyl-3-(BnSCO-L-ValΨ[COCH2]-L-Phe-L-Gln)-E-Propenoate] | >1730 |  |  | 
5 | CCOC(=O)/C=C/C(CCC(N)=O)NC(=O)C(CC(=O)C(CC(C)C)NC(=O)SCc1ccccc1)Cc1ccccc1 [Compound 6, Ethyl-3-(BnSCO-L-LeuΨ[COCH2]-L-Phe-L-Gln)-E-Propenoate] | >147 |  |  | 
6 | CCOC(=O)/C=C/[C@H](CCC(N)=O)NC(=O)[C@@H](CC(=O)[C@H](CC(C)C)NC(=O)SC1CCCC1)Cc1ccccc1 [Compound 8, Ethyl-3-(CyPentylSCO-L-LeuΨ[COCH2]-L-Phe-L-Gln)-E-Propenoate] | >526 |  |  | 
7 | CCOC(=O)/C=C/[C@H](CCC(N)=O)NC(=O)[C@@H](CC(=O)[C@@H](NC(=O)SCC)C(C)C)Cc1ccc(C)cc1 [Compound 10, Ethyl-3-(EtSCO-L-ValΨ[COCH2]-L-(p-CH3)Phe-L-Gln)-E-Propenoate] | >91 | >57 |  | 
8 | CCOC(=O)/C=C/C(CCC(N)=O)NC(=O)C(CC(=O)C(NC(=O)SC1CCCC1)C(C)C)Cc1ccc(C)cc1 [Compound 11, Ethyl-3-(CyPentylSCO-L-ValΨ[COCH2]-L-(p-CH3)Phe-L-Gln)-E-Propenoate] | >500 | >25 | >50 | >18
9 | CCOC(=O)/C=C/C(CCC(N)=O)NC(=O)C(CC(=O)C(Cc1ccccc1)NC(=O)SC1CCCC1)Cc1ccc(C)cc1 [Compound 12, Ethyl-3-(CyPentylSCO-L-PheΨ[COCH2]-L-(p-CH3)Phe-L-Gln)-E-Propenoate] | >7 |  |  | 
10 | CCOC(=O)/C=C/[C@H](CCC(N)=O)NC(=O)[C@@H](CC(=O)[C@@H](NC(=O)SCC)C(C)C)Cc1ccc(C(F)(F)F)cc1 [Compound 15, Ethyl-3-(EtSCO-L-ValΨ[COCH2]-L-(p-CF3)Phe-L-Gln)-E-Propenoate] | >15 |  |  | 
11 | CCOC(=O)/C=C/C(CCC(N)=O)NC(=O)C(CC(=O)C(Cc1ccccc1)NC(=O)SC1CCCC1)Cc1ccc(F)cc1 [Compound 18, Ethyl-3-(CyPentylSCO-L-PheΨ[COCH2]-L-(p-F)Phe-L-Gln)-E-Propenoate] | >6 |  |  | 
12 | CCOC(=O)/C=C/C(CCC(N)=O)NC(=O)C(CC(=O)C(CC(C)C)NC1CCCC1)Cc1ccc(F)cc1 (stereo not shown) [Compound 19] | >10 | >4 | >1.8 | >5
13 | CCOC(=O)c1ccc(OCCC2CCN(c3ccc(C)nn3)CC2)cc1 [Pirodavir, reference compound] | >300 |  |  | 
14 | Cc1cc(CCCCCCCOc2ccc(C3=NCCO3)cc2)on1 [WIN 51711, reference compound] | >77 |  |  | 
15 | Cc1cc(CCCCCCCOc2ccc(C3=N[C@@H](C)CO3)cc2)on1 [WIN 52084, reference compound] | >143 |  |  | 
16 | Cc1cc(CCCCCOc2c(Cl)cc(C3=NCCO3)cc2Cl)on1 [WIN 54954, reference compound] | >30 |  |  | 
